Results on six molecules are retold here after ChEMBL document CHEMBL3817772, “Design, Synthesis, and Biological Evaluations of Hydroxypyridonecarboxylic Acids as Inhibitors of HIV Reverse Transcriptase Associated RNase H” (J Med Chem, 2016).

Sequences of proteins named here, by UniProt entry; tags and fusion partners are left off.
UniProt Q7ZJM1, entry or part of it C280S/F185K: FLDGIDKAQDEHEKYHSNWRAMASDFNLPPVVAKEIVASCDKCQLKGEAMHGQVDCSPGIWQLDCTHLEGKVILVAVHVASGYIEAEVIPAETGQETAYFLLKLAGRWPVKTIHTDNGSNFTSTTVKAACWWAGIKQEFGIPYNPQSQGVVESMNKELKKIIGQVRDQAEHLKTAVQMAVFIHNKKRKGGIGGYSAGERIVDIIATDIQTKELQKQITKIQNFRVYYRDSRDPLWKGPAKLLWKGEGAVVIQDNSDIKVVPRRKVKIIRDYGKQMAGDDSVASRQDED

For this assay, the target named is Human immunodeficiency virus type 1 integrase (Human immunodeficiency virus 1, UniProt Q7ZJM1, C280S/F185K). The experiment in a line: Inhibition of full-length HIV-1 integrase F185K/C280S double mutant strand transfer activity expressed in Escherichia coli BL21(DE3) using oligo DNA as substrate preincubated for 10 mins followed by substrate addition incubated for 30 mins by plate reader analysis.
A word on the IC50: it is the point on the concentration scale where inhibition reaches its midpoint. The low end stands for inhibition by little substance, the high end for a need for much substance. In turn, `O=C(O)c1cn(Cc2ccc(-c3cnc4ccccc4c3)cc2)cc(O)c1=O` yielded an IC50 of 16 µM.

`O=C(O)c1cn(Cc2cccc(C(F)(F)F)c2)cc(O)c1=O` returned an IC50 of more than 100 µM.

For `O=C(O)c1cn(Cc2ccc(Cl)cc2)cc(O)c1=O`, it took 67 µM to reach half-maximal inhibition (IC50).

For `O=C(O)c1cn(Cc2cccc3ccccc23)cc(O)c1=O`, the IC50 was 23 µM. This IC50 lies about 2.9-fold lower than the previous one.

With `O=C(O)c1cn(Cc2ccc(-c3cccnc3)cc2)cc(O)c1=O`, the IC50 is 35 µM. Compared with the last molecule, the IC50 is about 1.5-fold higher.

In the case of `COc1ccc(Cn2cc(O)c(=O)c(C(=O)O)c2)cc1`, the IC50 was more than 100 µM.
